Measured values from several laboratories, pooled; numbers as filed in NIAID ChemDB.

Shared fields: tests on isolated targets; organism: HIV-1; protein: Protease; endpoint: inhibition

Neighbouring rows are from separate reports.

structure,method,dose,value
CC(C)(C)NC(=O)[C@@H]1CSCN1C(=O)[C@@H](O)[C@H](Cc1ccccc1)NC(=O)CC(C)(C)C(=O)O,,93 µM,5%
CC(C)[C@H](NC(=O)OCc1ccccc1)C(=O)NC(Cc1ccccc1)C(O)C(Cc1ccccc1)NC(=O)OC(C)(C)C,fluorescence,0.01 µM,37%
COc1ccc(-c2cc(=O)c3c(O)cc(OC4OC(COC5OC(C)C(O)C(O)C5O)C(O)C(O)C4O)cc3o2)cc1,fluorescence,50 µg/mL,60%
Cc1ccccc1-n1nnc(C(c2ccccc2)(c2ccccc2)n2ccnc2)c1C,substrate cleavage / fluorescence,0.08 µg/mL,12.1%
CC(C)[C@H](NC(=O)CCC1CCCCN1)C(=O)N[C@@H](Cc1ccccc1)C(O)[C@H](Cc1ccccc1)NC(=O)[C@@H](NC(=O)CCC1CCCCN1)C(C)C,fluorescence,0.01 µM,46%
COc1ccc(-c2cc(=O)c3c(O)cc(O)cc3o2)cc1,fluorescence,50 µg/mL,30.5%
CC(C)[C@H](NC(=O)OCc1ccccn1)C(=O)N[C@@H](Cc1ccccc1)[C@H](O)[C@H](O)[C@H](Cc1ccccc1)NC(=O)[C@@H](NC(=O)OCc1ccccn1)C(C)C,fluorescence,0.001 µM,78%
O=C1CC2C(=O)Oc3cc(cc(O)c3O)C(=O)O[C@@H]3O[C@@H]4COC(=O)c5cc(O)c(O)c(c5[C@H]2C(=O)O[C@@H]2[C@H]3OC(=O)c3cc(O)c(O)cc3-c3c(cc5nc6ccccc6nc5c3O)C(=O)O[C@@H]24)O1,fluorescence,50 µg/mL,37.2%
CC(C)[C@H](NC(=O)OCc1ccccc1)C(=O)NC(Cc1ccccc1)C(O)C(Cc1ccccc1)NC(=O)[C@@H](NC(=O)OCc1ccccc1)C(C)C,fluorescence,0.01 µM,75%
O=c1[nH]c2ccc(S(=O)(=O)N3CCc4ccccc4C3)cc2[nH]c1=O,,150 µM,31.02%
CC(C)[C@H](NC(=O)OCc1ccccn1)C(=O)N[C@@H](Cc1ccccc1)[C@H](O)[C@H](O)[C@H](Cc1ccccc1)NC(=O)CCC(=O)O,fluorescence,0.01 µM,68%
Cc1cc(=O)n2[nH]c(NCc3cccs3)nc2n1,,150 µM,36.41%
O=c1c(O[C@@H]2O[C@H](CO)[C@@H](O)[C@H](O)[C@H]2O)c(-c2ccc(O)c(O)c2)oc2cc(O)cc(O)c12,HPLC,50 µg/mL,26.6%
CC(C)[C@H](NC(=O)c1ccccn1)C(=O)N[C@@H](Cc1ccccc1)[C@@H](O)[C@H](O)[C@H](Cc1ccccc1)NC(=O)[C@@H](NC(=O)c1ccccn1)C(C)C,fluorescence,0.1 µM,78%
CC(C(=O)O)C(C)C(=O)N[C@@H](Cc1ccccc1)[C@H](O)C(=O)N1CSC[C@H]1C(=O)NC(C)(C)C,,31.9 µM,0.05%
O=C(Nc1ccc(F)cc1F)c1cc2n(n1)[C@H](C(F)(F)F)C1CCCCC1N2,,150 µM,35.09%
O=C1O[C@H]2[C@@H]3OC(=O)c4cc(O)c(O)c(O)c4-c4c(cc(O)c(O)c4O)C(=O)OC[C@H]2O[C@@H](OC(=O)c2cc(O)c(O)c(O)c2)[C@@H]3OC(=O)c2cc(O)c(O)c3c2[C@@H]2C1=CC(=O)[C@](O)(O3)C2(O)O,HPLC,50 µg/mL,68.2%
CC1=CC(C)(C)Nc2ccc(OC(=O)c3cccnc3)cc21,,150 µM,41.14%
O=C(O[C@@H]1O[C@@H]2COC(=O)c3cc(O)c(O)c(O)c3-c3c(cc(O)c(O)c3O)C(=O)O[C@H]([C@H]1O)[C@@H]2O)c1cc(O)c(O)c(O)c1,fluorescence,50 µg/mL,91.4%
CC(C)[C@H](NC(=O)OCCN1CCOCC1)C(=O)N[C@@H](Cc1ccccc1)C(O)[C@H](Cc1ccccc1)NC(=O)[C@@H](NC(=O)OCCN1CCOCC1)C(C)C,fluorescence,0.1 µM,35%
O=c1cc(-c2ccc(O)cc2)oc2cc(O)c(O)c(O)c12,HPLC,50 µg/mL,79.1%
CC1=NNc2nc3c(c(=O)n(Cc4ccccc4)c(=O)n3C)n2C1,,150 µM,34.92%

A second listing of 3 rows from above:

{"structure": "CC(C)[C@H](NC(=O)OCCN1CCOCC1)C(=O)N[C@@H](Cc1ccccc1)C(O)[C@H](Cc1ccccc1)NC(=O)[C@@H](NC(=O)OCCN1CCOCC1)C(C)C", "method": "fluorescence", "dose": "0.1 µM", "value": "35%"}
{"structure": "CC(C)[C@H](NC(=O)OCc1ccccn1)C(=O)N[C@@H](Cc1ccccc1)[C@H](O)[C@H](O)[C@H](Cc1ccccc1)NC(=O)[C@@H](NC(=O)OCc1ccccn1)C(C)C", "method": "fluorescence", "dose": "0.001 µM", "value": "78%"}
{"structure": "CC(C)(C)NC(=O)[C@@H]1CSCN1C(=O)[C@@H](O)[C@H](Cc1ccccc1)NC(=O)CC(C)(C)C(=O)O", "dose": "93 µM", "value": "5%"}

Percent inhibition refers to the dose given; in toxicity tests it is the harm to the cells. An empty or dashed field is not shown.